# PSTVd stem 15 mutant pool in Nicotiana benthamiana

Data from the supplement of Wu et al. 2024, doi:10.1371/journal.ppat.1012142.

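A pool of all variants was put on leaves of three Nicotiana benthamiana plants. Progeny were sequenced from the inoculated region (day 5), the margin of the inoculated leaf (day 10) and systemic leaves (day 12).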

Region: stem 15 of PSTVd (intermediate strain), upper and lower strand joined, each 5' to 3', the first 9 letters being the upper strand. Wild type: CUGGAGCGAUCGCUUCGG. Varied positions (N): CUGGAGCGAUNGNNUNNG.

Values are reads per thousand in the sample; higher means more abundant, 0 means not found. Each site shows the three plants. "Pool" is the share in the plasmid pool used as inoculum, on the same scale. The inoculated region was read from the minus strand, the other sites from the plus strand. IR is the inoculated region, LM the leaf margin, Sys the systemic leaves. Samples held 36,693 to 63,082 reads, so the smallest values rest on one or two reads.

{"sequence": "AUGGAGCGAUAGACUAAG", "pool": "0.0162", "IR": "0 / 0 / 0", "LM": "0 / 0 / 0", "Sys": "0 / 0 / 0"}
{"sequence": "AUGGAGCGAUAGCAUUCG", "pool": "0.0162", "IR": "0 / 0 / 0", "LM": "0 / 0 / 0", "Sys": "0 / 0 / 0"}
{"sequence": "AUGGAGCGAUAGCUUUCG", "pool": "0.0162", "IR": "0 / 0 / 0", "LM": "0 / 0 / 0", "Sys": "0 / 0 / 0"}
{"sequence": "AUGGAGCGAUAGGCUACG", "pool": "0.0162", "IR": "0 / 0 / 0", "LM": "0 / 0 / 0", "Sys": "0 / 0 / 0"}
{"sequence": "AUGGAGCGAUAGGGUGGG", "pool": "0.0162", "IR": "0 / 0 / 0", "LM": "0 / 0 / 0", "Sys": "0 / 0 / 0"}
{"sequence": "AUGGAGCGAUAGGUUCGG", "pool": "0.0162", "IR": "0 / 0 / 0", "LM": "0 / 0 / 0", "Sys": "0 / 0 / 0"}
{"sequence": "AUGGAGCGAUAGGUUUUG", "pool": "0.0162", "IR": "0 / 0 / 0", "LM": "0 / 0 / 0", "Sys": "0 / 0 / 0"}
{"sequence": "AUGGAGCGAUAGUGUCAG", "pool": "0.0162", "IR": "0 / 0 / 0", "LM": "0 / 0 / 0", "Sys": "0 / 0 / 0"}
{"sequence": "AUGGAGCGAUAGUGUUCG", "pool": "0.0162", "IR": "0 / 0 / 0", "LM": "0 / 0 / 0", "Sys": "0 / 0 / 0"}
{"sequence": "AUGGAGCGAUAGUUUGGG", "pool": "0.0162", "IR": "0 / 0 / 0", "LM": "0 / 0 / 0", "Sys": "0 / 0 / 0"}
{"sequence": "AUGGAGCGAUCGACUCCG", "pool": "0.0162", "IR": "0 / 0 / 0", "LM": "0 / 0 / 0", "Sys": "0 / 0 / 0"}
{"sequence": "AUGGAGCGAUCGCAUCUG", "pool": "0.0162", "IR": "0 / 0 / 0", "LM": "0 / 0 / 0", "Sys": "0 / 0 / 0"}
{"sequence": "AUGGAGCGAUCGCUUGGG", "pool": "0.0162", "IR": "0 / 0 / 0", "LM": "0 / 0 / 0", "Sys": "0 / 0 / 0"}
{"sequence": "AUGGAGCGAUCGGAUGAG", "pool": "0.0162", "IR": "0 / 0 / 0", "LM": "0 / 0 / 0", "Sys": "0 / 0 / 0"}
{"sequence": "AUGGAGCGAUCGUCUCCG", "pool": "0.0162", "IR": "0 / 0 / 0", "LM": "0 / 0 / 0", "Sys": "0 / 0 / 0"}
{"sequence": "AUGGAGCGAUGGCCUUAG", "pool": "0.0162", "IR": "0 / 0 / 0", "LM": "0 / 0 / 0", "Sys": "0 / 0 / 0"}
{"sequence": "AUGGAGCGAUGGGGUGGG", "pool": "0.0162", "IR": "0 / 0 / 0", "LM": "0 / 0 / 0", "Sys": "0 / 0 / 0"}
{"sequence": "AUGGAGCGAUGGUAUCGG", "pool": "0.0162", "IR": "0 / 0 / 0", "LM": "0 / 0 / 0", "Sys": "0 / 0 / 0"}
{"sequence": "AUGGAGCGAUUGCUUCAG", "pool": "0.0162", "IR": "0 / 0 / 0", "LM": "0 / 0 / 0", "Sys": "0 / 0 / 0"}
{"sequence": "AUGGAGCGAUUGCUUCCG", "pool": "0.0162", "IR": "0 / 0 / 0", "LM": "0 / 0 / 0", "Sys": "0 / 0 / 0"}
{"sequence": "AUGGAGCGAUUGCUUUAG", "pool": "0.0162", "IR": "0 / 0 / 0", "LM": "0 / 0 / 0", "Sys": "0 / 0 / 0"}
{"sequence": "AUGGAGCGAUUGGAUAAG", "pool": "0.0162", "IR": "0 / 0 / 0", "LM": "0 / 0 / 0", "Sys": "0 / 0 / 0"}
{"sequence": "AUGGAGCGAUUGUUUUUG", "pool": "0.0162", "IR": "0.0391 / 0.0209 / 0", "LM": "0.0207 / 0 / 0.0159", "Sys": "0 / 0.0222 / 0"}
{"sequence": "CAGGAGCGAUAGCUUAAG", "pool": "0.0162", "IR": "0 / 0 / 0", "LM": "0 / 0 / 0", "Sys": "0 / 0 / 0"}
{"sequence": "CAGGAGCGAUCGCCUCCG", "pool": "0.0162", "IR": "0 / 0 / 0", "LM": "0 / 0 / 0", "Sys": "0 / 0 / 0"}
{"sequence": "CAGGAGCGAUGGACUGAG", "pool": "0.0162", "IR": "0 / 0 / 0", "LM": "0 / 0 / 0", "Sys": "0 / 0 / 0"}
{"sequence": "CAGGAGCGAUGGAUUUUG", "pool": "0.0162", "IR": "0 / 0 / 0", "LM": "0 / 0 / 0", "Sys": "0 / 0 / 0"}
{"sequence": "CAGGAGCGAUGGGUUCGG", "pool": "0.0162", "IR": "0 / 0 / 0", "LM": "0 / 0 / 0", "Sys": "0 / 0 / 0"}
{"sequence": "CAGGAGCGAUUGAAUCAG", "pool": "0.0162", "IR": "0.0196 / 0 / 0", "LM": "0 / 0 / 0", "Sys": "0 / 0 / 0"}
{"sequence": "CAGGAGCGAUUGAGUUGG", "pool": "0.0162", "IR": "0 / 0 / 0", "LM": "0 / 0 / 0", "Sys": "0 / 0 / 0"}
{"sequence": "CAGGAGCGAUUGAUUAUG", "pool": "0.0162", "IR": "0 / 0 / 0", "LM": "0 / 0 / 0", "Sys": "0 / 0 / 0"}
{"sequence": "CAGGAGCGAUUGCGUGCG", "pool": "0.0162", "IR": "0 / 0 / 0", "LM": "0 / 0 / 0", "Sys": "0 / 0 / 0"}

The first 2 entries again:

AUGGAGCGAUAGACUAAG (pool 0.0162) read IR 0 / 0 / 0; LM 0 / 0 / 0; Sys 0 / 0 / 0.
AUGGAGCGAUAGCAUUCG (pool 0.0162) read IR 0 / 0 / 0; LM 0 / 0 / 0; Sys 0 / 0 / 0.

Wild type was 10.2 per thousand in the pool and the most common sequence in every sample (inoculated region 285, 367, 312; leaf margin 785, 865, 782; systemic leaves 854, 898, 915). The authors trace changes outside the varied positions to PCR and sequencing errors or to mutation in the plant; presence does not show that a variant is infectious alone.